Laboratory results reported in the supplement of paper PMC10933113.
± gives the uncertainty stated by the source. This is a selection; strong and weak results do not stand in their true shares.

Each compound was assayed on THP-1 (assay: CD54 surface expression induction over DMSO control (% over DMSO); higher = stronger dendritic cell activation). Conditions: 10 µM; exposure time: 24 h.
Method: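 hCLAT-like CD54 and CD86 surface expression on THP1 cells after 24 h exposure at a single concentration (highest non-cytotoxic concentration, or 100-200 µM if not cytotoxic). Flow cytometry (iQue) was run on 5,000 live cells.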

| Compound | CD54 surface expression induction |
| --- | --- |
| C[CH2][Sn]([Br])([CH2]C)[CH2]C [Triethyltin bromide] | 5.45 ± 3 |
